According to PMC12604490, “Dual immunomodulatory and antileishmanial potential of TLR7/8 agonists against Leishmania donovani” (Infection and Immunity, 2025):

Assays:
HeLa cells = assay: Cytotoxicity on HeLa cells (MTT, 48 h); format: cell-based, human; conditions: for HeLa cell SI (antiamastigote): CC50 HeLa / IC50 amastigotes; for HeLa cell SI (antipromastigote): CC50 HeLa / IC50 promastigotes
Experimental: HeLa cells (human cervical epithelial cell line) were grown in RPMI-1640 (HiMedia) with 10% FBS and cultured at 37°C (5% CO2). The cells were evaluated daily using an inverted microscope for any contamination and subcultured after reaching confluency ([21]).
(§1) The cytotoxicity studies were performed using an immune cell line (RAW 264.7 macrophage) and non-immune epithelial cell line (HeLa) by 3-(4,5-dimethylthiazol-2-yl)-2,5-diphenyltetrazolium bromide (MTT) assay. A total of 7,000–10,000 cells/well were supplemented with different concentrations (2–64 μg/mL) of TLR7/8 agonists and incubated for 48 hours. MTT (1 mg/mL) (Hi-Media) was added to each well and kept for 4 hours. The formazan crystals formed were dissolved in 100 µL of dimethyl ulfoxide (DMSO), and absorbance at 550 nm was recorded using a microreader. AmB, MF, and Resiquimod were used as reference drugs. The percentage of cytotoxicity was calculated as [(absorbance of treated well − absorbance of blank) / (absorbance of untreated well − absorbance of blank)] × 100. The CC50 value was calculated with SPSS software. The SI of TLR7/8 agonists was obtained by calculating the ratio of CC50 (RAW 264.7 macrophage and HeLa cells) and IC50 (antipromastigote and antiamastigotes) ([21], [23]).

RAW 264.7 macrophages = assay: Cytotoxicity on RAW 264.7 macrophages (MTT, 48 h); format: cell-based; conditions: for RAW macrophage SI (antiamastigote): CC50 RAW 264.7 / IC50 amastigotes; for RAW macrophage SI (antipromastigote): CC50 RAW 264.7 / IC50 promastigotes
Experimental: To evaluate the cytotoxicity and antiamastigote assay, RAW 264.7 macrophages were cultured in Dulbecco’s modified Eagle medium (HiMedia, India), 10% heat-inactivated fetal bovine serum (FBS, Biowest) and cultured at 37°C (5% CO2). The macrophage cell growth was evaluated daily, and the cells were subcultured into a new flask containing fresh cell culture medium once they reached about 80%–90% confluency.
as §1

| Structure (SMILES) | HeLa cell SI (antiamastigote) (HeLa cells) | RAW macrophage SI (antiamastigote) (RAW 264.7 macrophages) | RAW macrophage SI (antipromastigote) (RAW 264.7 macrophages) | HeLa cell SI (antipromastigote) (HeLa cells) |
| --- | --- | --- | --- | --- |
| C[C@@H]1[C@H](O)[C@@H](C)/C=C/C=C/C=C/C=C/C=C/C=C/C=C/[C@H](O[C@@H]2O[C@H](C)[C@@H](O)[C@H](N)[C@@H]2O)C[C@@H]2O[C@](O)(C[C@@H](O)C[C@@H](O)[C@H](O)CC[C@@H](O)C[C@@H](O)CC(=O)O[C@H]1C)C[C@H](O)[C@H]2C(=O)O [Amphotericin B, amphotericin B, reference compound] | 80.5 | 95.75 | 147.3 | – |
| CCCCc1nc2c(N)nc3ccccc3c2n1Cc1ccc(CO)cc1 [compound 4] | 0.64 | 0.91 | 1.03 | 0.73 |
| CCCCCCCCCCCCCCCCOP(=O)([O-])OCC[N+](C)(C)C [Miltefosine, miltefosine, reference compound] | 5.86 | 7.58 | 10.69 | 8.27 |
